Anti-infective test results gathered from many reports (values: NIAID ChemDB through PubChem).

All rows: growth or infection tests; agent: HIV-1; endpoint: fold resistance

Blank or dashed fields: not listed here.

structure | mutations | cells | strain or isolate | read by | result
Nc1cccc2c1nc(-c1c(F)cccc1F)n2Cc1c(F)cccc1F | RT-V179D | MT-4 |  | cytopathic effect / MTT | 0.75
CCc1c(Sc2ccccn2)n(COCc2ccccc2)c(=O)[nH]c1=O | RT-A98G V108I | CEM + CEM-SS | IIIB | cytopathic effect / XTT | 30
Cc1occc1C(=S)Nc1ccc(Cl)c(/C=N/OC(C)(C)C)c1 | RT-G190E | CEM | IIIB | p24 | >40
Cc1ccnc2c1NC(=O)c1cccnc1N2C1CC1 | RT-M184V | CEM + CEM-SS | 3TC-resistant (RT M184V) | XTT | 1
CC(=O)Nc1cccc2c1nc(-c1c(F)cccc1F)n2Cc1c(F)cccc1F | RT-V106A | MT-4 |  | cytopathic effect / MTT | >12.5
CCc1cc([C@](C#CC2CC2)(OCc2ccccc2)C(F)(F)F)c(=O)[nH]c1C | RT-K103N P225H |  |  |  | 6.15
Cc1cn([C@@H]2O[C@H](CO[Si](C)(C)C(C)(C)C)C3(OS(=O)(=O)C=C3N)[C@H]2O[Si](C)(C)C(C)(C)C)c(=O)n(C)c1=O | RT-Y181I | CEM | Pyr/BHAP(RT-Y181I) | syncytia | 750
C#C[C@@]1(CO)C=C[C@H](n2cc(C)c(=O)[nH]c2=O)O1 | RT-K103N | MAGI (CCR5) + MAGI | NL4-3 | β-galactosidase | 0.59
O=c1[nH]cnc2c1ncn2[C@H]1CC[C@@H](CO)O1 | RT-M184I | MT-4 | RF | cytopathic effect / MTT | 1.61
Nc1nc2c(ncn2[C@H]2CC[C@@H](CO)O2)c(=O)[nH]1 | RT-V106A | CEM | NEV(RT-V106A) | syncytia | 0.7
Nc1ccn([C@H]2CC[C@@H](CO)O2)c(=O)n1 | RT-L74V T215Y K219Q | PBMC |  | p24 | 5.3
C=C(C)OC(=O)N1c2cc(Cl)ccc2NC(=S)C1(C)C | RT-E138K | CEM | TSAO(RT-E138K) | syncytia | 1.79
Cc1cn([C@H]2C[C@H](N=[N+]=[N-])[C@@H](CO)O2)c(=O)[nH]c1=O | RT-P236L | CEM + CEM-SS | IIIB HEPT-resistant (RT P236L) | cytopathic effect / XTT | 0.3
CNc1cccc2c1nc(-c1c(F)cccc1F)n2Cc1c(F)cccc1F | RT-K103N | MT-4 |  | cytopathic effect / MTT | 20.4
CCCCC/C=C\C/C=C\C/C=C\CCCCC(=O)O | RT-K103N V108I |  |  |  | 141
Cc1cn([C@H]2C[C@H](N=[N+]=[N-])[C@@H](CO)O2)c(=O)[nH]c1=O | RT-L74V T215Y K219Q | PBMC |  | p24 | 2
CC(C)CN(C[C@@H](O)[C@H](Cc1ccccc1)NC(=O)O[C@H]1CCOC1)S(=O)(=O)c1ccc(N)cc1 | PR-L10I K43T M46L I54L L63P A71T V82A L90M Q92K | PBMC | Clinical isolate | p24 | 26.8
Nc1ccn([C@H]2CC[C@@H](CO)O2)c(=O)n1 | RT-M184I | HELA/CD4 + HELA CD4+ | HXB2 | plaque count | 0.952
Cc1cn([C@H]2C[C@H](N=[N+]=[N-])[C@@H](CO)O2)c(=O)[nH]c1=O | RT-M41L D67N V118I M184V L210W T215Y | HeLa | NRTI resistant | luciferase | 9.5
Cc1c(O)cccc1C(=O)N[C@@H](CSc1ccccc1)[C@H](O)CN1C[C@H]2CCCC[C@H]2C[C@H]1C(=O)NC(C)(C)C | PR-L10I I15V E35D N37E K45R I54V L63P A71V V82T L90M I93L C95F | PBMC | Clinical isolate | p24 | >43.5
Nc1cccc2c1nc(-c1c(F)cccc1F)n2Cc1c(F)cccc1F | RT-V179D | MT-4 |  | cytopathic effect / MTT | 0.75
CC(C)Nc1cccnc1N1CCN(C(=O)c2cc3ccccc3[nH]2)CC1 | RT-Y181I | CEM | Pyr/BHAP(RT-Y181I) | syncytia | 165
N#Cc1cc2[nH]c3ccccc3c2n(-c2ccc([N+](=O)[O-])cc2)c1=O | RT-K103N L100I | HeLa | NNRTI-resistant | luciferase | 3.7
Cc1cn([C@@H]2O[C@H](CO[Si](C)(C)C(C)(C)C)C3(OS(=O)(=O)C=C3N)[C@H]2O[Si](C)(C)C(C)(C)C)c(=O)n(C)c1=O | RT-L100I | CEM | IIIB | p24 | 1.75
CC(C)c1nc(CN(C)C(=O)N[C@H](C(=O)N[C@@H](Cc2ccccc2)C[C@H](O)[C@H](Cc2ccccc2)NC(=O)OCc2cncs2)C(C)C)cs1 | PR-L10I I15V E35D N37E K45R I54V L63P A71V V82T L90M I93L C95F | PBMC | Clinical isolate | p24 | >23
Cc1cn([C@H]2C[C@H](N=[N+]=[N-])[C@@H](CO)O2)c(=O)[nH]c1=O | RT-I50T | MT-4 | HXB2-D50(RT-I50T) | p24 | 1
Cn1c2ccccc2c2c1cc(C#N)c(=O)n2-c1ccc([N+](=O)[O-])cc1 | RT-A62T V118I M184V | HeLa | Recombinant | luciferase | 9.5
COc1ccc2c(c1)N(C(=O)OC(C)C)[C@@H](CSC)C(=S)N2 | RT-M184V | CEM | IIIB | p24 | 3
Nc1nc(NC2CC2)c2ncn([C@H]3C=C[C@@H](CO)C3)c2n1 | RT-K65R H221Y | MT-2 | Site-directed mutant | cytopathic effect / XTT | 5
Fc1cccc(F)c1Cn1c(-c2c(F)cccc2F)nc2c(Br)cccc21 | RT-V108I | MT-4 |  | cytopathic effect / MTT | 6.4
Fc1cccc(F)c1Cn1c(-c2c(F)cccc2F)nc2c(Br)cccc21 | RT-Y188C | MT-4 |  | cytopathic effect / MTT | 6.8
O=c1[nH]cnc2c1ncn2[C@H]1CC[C@@H](CO)O1 | RT-K65R | MAGI (CCR5) + MAGI | HXB2 | β-galactosidase | 2.6
Cc1cn([C@H]2C[C@H](N=[N+]=[N-])[C@@H](CO)O2)c(=O)[nH]c1=O | RT-K103N Y181C | CEM + CEM-SS | Pyridinone-resistant (RT K103N Y181C) | XTT | 0.2
CN(C)c1cccc2c1nc(-c1c(F)cccc1F)n2Cc1c(F)cccc1F | RT-V108I | MT-4 |  | cytopathic effect / MTT | 6.4
C[C@H](Cn1cnc2c(N)ncnc21)OCP(=O)(O)O | RT-K65R Y115F | MT-2 | Site-directed mutant | cytopathic effect / XTT | 5.9
COc1ccc(S(=O)(=O)N(CC(C)C)C[C@@H](O)[C@H](Cc2ccccc2)NC(=O)O[C@H]2CO[C@H]3OCC[C@H]32)cc1 | PR-L10I K14R R41K M46L I54V L63P A71V V82A L90M I93L | PBMC | Clinical isolate | p24 | 1
O=c1[nH]cnc2c1ncn2[C@H]1CC[C@@H](CO)O1 | RT-M184V P294S | MT-4 | HXB2-D184+294 (RT M184V P294S) | RT activity | 4.81
CC(=O)Nc1cccc2c1nc(-c1c(F)cccc1F)n2Cc1c(F)cccc1F | RT-L100I | MT-4 |  | cytopathic effect / MTT | 16
CC(C)=CCN1Cc2cccc3[nH]c(=S)n(c23)C[C@@H]1C | RT-Y181C | CEM + CEM-SS | IIIB | cytopathic effect / XTT | 25
CC(=O)N(C)c1cccc2c1nc(-c1c(F)cccc1F)n2Cc1c(F)cccc1F | RT-L100I | MT-4 |  | cytopathic effect / MTT | 0.97
CC(C)=CCN1Cc2cc(Cl)cc3[nH]c(=S)n(c23)C[C@@H]1C | RT-M184V | CEM | IIIB | p24 | 0.55

The first 4 rows once more:

structure | mutations | cells | strain or isolate | read by | result
Nc1cccc2c1nc(-c1c(F)cccc1F)n2Cc1c(F)cccc1F | RT-V179D | MT-4 |  | cytopathic effect / MTT | 0.75
CCc1c(Sc2ccccn2)n(COCc2ccccc2)c(=O)[nH]c1=O | RT-A98G V108I | CEM + CEM-SS | IIIB | cytopathic effect / XTT | 30
Cc1occc1C(=S)Nc1ccc(Cl)c(/C=N/OC(C)(C)C)c1 | RT-G190E | CEM | IIIB | p24 | >40
Cc1ccnc2c1NC(=O)c1cccnc1N2C1CC1 | RT-M184V | CEM + CEM-SS | 3TC-resistant (RT M184V) | XTT | 1

Neighbouring rows are from separate reports. Fold resistance: result on the changed form divided by that on wild type.